{"source": "PubChem BioAssay AID504761 (Drosophila RNAi Screening Center, 2011)", "test": "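Genome-wide fly cell screen for genes dengue virus requires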 (primary screen)", "cells": "D.Mel-2 cells from Drosophila", "reagent": "long dsRNA against Drosophila genes", "treatment": "infection with dengue virus type 2; dose and infection time not stated", "read-out": "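Per well on two replicate plates, imaging gave the percent of cells positive for viral envelope protein, ranked by infection, and a nuclear count of cells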", "direction": "infection score: higher = more virus-infected cells; cell count: higher = more cells in the well", "hit rule": "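Low infection ranks in the two replicates (chance level up to 0.065) followed by a retest with a 1.5-fold or larger significant decrease, p below 0.05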", "calls": "active = confirmed: knock-down lowers infection; inactive = not picked or not confirmed", "note": "The deposit covers about 22,000 reagents; below is an unselected part of those that have a named target and a result. Over the whole deposit, 116 (0.52%) were called active. 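Calls depend on retest data that are not deposited; infection was ranked per plate without normalising between plates; the unit of the infection score is not given.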 Raw values are not corrected between plates. A number with no mark means an inactive call. The numbers tell different reagents against one gene apart. No sequences are given here. Not stated in the record: the amount of reagent, the time to read-out."}
{"Target gene": "eIF3f2 (eukaryotic translation initiation factor 3 subunit f2)", "reagent no.": 1, "infection score, replicate 1": 4.51, "infection score, replicate 2": 18.4, "cell count, replicate 1": 6493, "cell count, replicate 2": 6304}
{"Target gene": "Rab9Fb (Rab at 9Fb)", "reagent no.": 1, "infection score, replicate 1": 5.73, "infection score, replicate 2": 8.82, "cell count, replicate 1": 6701, "cell count, replicate 2": 6453}
{"Target gene": "CG15459", "reagent no.": 1, "infection score, replicate 1": 6.54, "infection score, replicate 2": 6.19, "cell count, replicate 1": 6041, "cell count, replicate 2": 6345}
{"Target gene": "CG15459", "reagent no.": 2, "infection score, replicate 1": 2.8, "infection score, replicate 2": 2.64, "cell count, replicate 1": 5929, "cell count, replicate 2": 6059}
{"Target gene": "CG15459", "reagent no.": 3, "infection score, replicate 1": 0.84, "infection score, replicate 2": 16.9, "cell count, replicate 1": 6090, "cell count, replicate 2": 5045}
{"Target gene": "Glyp (Glycogen phosphorylase)", "reagent no.": 1, "infection score, replicate 1": 6.19, "infection score, replicate 2": 1.39, "cell count, replicate 1": 6707, "cell count, replicate 2": 6280}
{"Target gene": "Tom (Twin of m4)", "reagent no.": 1, "infection score, replicate 1": 7.07, "infection score, replicate 2": 4.22, "cell count, replicate 1": 6816, "cell count, replicate 2": 7069}
{"Target gene": "Tom (Twin of m4)", "reagent no.": 2, "infection score, replicate 1": 6, "infection score, replicate 2": 14.6, "cell count, replicate 1": 2467, "cell count, replicate 2": 5593}
{"Target gene": "Scgdelta (Sarcoglycan delta)", "reagent no.": 1, "infection score, replicate 1": 2.78, "infection score, replicate 2": 10.1, "cell count, replicate 1": 720, "cell count, replicate 2": 6199}
{"Target gene": "Or67d (Odorant receptor 67d)", "reagent no.": 1, "infection score, replicate 1": 2.2, "infection score, replicate 2": 6.73, "cell count, replicate 1": 5507, "cell count, replicate 2": 6270}
{"Target gene": "CCT8 (Chaperonin containing TCP1 subunit 8)", "reagent no.": 1, "infection score, replicate 1": 15.2, "infection score, replicate 2": 5.83, "cell count, replicate 1": 2987, "cell count, replicate 2": 4031}
{"Target gene": "CCT8 (Chaperonin containing TCP1 subunit 8)", "reagent no.": 2, "infection score, replicate 1": 15.4, "infection score, replicate 2": 8.86, "cell count, replicate 1": 3553, "cell count, replicate 2": 3453}
{"Target gene": "AttB (Attacin-B)", "reagent no.": 1, "infection score, replicate 1": 29.8, "infection score, replicate 2": 20.3, "cell count, replicate 1": 5860, "cell count, replicate 2": 4219}
{"Target gene": "AttB (Attacin-B)", "reagent no.": 2, "infection score, replicate 1": 16.6, "infection score, replicate 2": 16, "cell count, replicate 1": 6318, "cell count, replicate 2": 6162}
{"Target gene": "Prosbeta1 (Proteasome beta1 subunit)", "reagent no.": 1, "infection score, replicate 2": 0.09, "cell count, replicate 1": 21, "cell count, replicate 2": 1124}
{"Target gene": "CG15093", "reagent no.": 1, "infection score, replicate 1": 2.48, "infection score, replicate 2": 14.2, "cell count, replicate 1": 6528, "cell count, replicate 2": 5901}
{"Target gene": "CG15093", "reagent no.": 2, "infection score, replicate 1": 5.3, "infection score, replicate 2": 4.14, "cell count, replicate 1": 5795, "cell count, replicate 2": 5840}
{"Target gene": "CG31710", "reagent no.": 1, "infection score, replicate 1": 10.6, "infection score, replicate 2": 1.76, "cell count, replicate 1": 5952, "cell count, replicate 2": 6250}
{"Target gene": "CG31710", "reagent no.": 2, "infection score, replicate 1": 2.21, "infection score, replicate 2": 11.8, "cell count, replicate 1": 6243, "cell count, replicate 2": 5831}
{"Target gene": "CG31710", "reagent no.": 3, "infection score, replicate 1": 7.39, "infection score, replicate 2": 1.76, "cell count, replicate 1": 6643, "cell count, replicate 2": 6548}
{"Target gene": "shams", "reagent no.": 1, "infection score, replicate 1": 1.48, "infection score, replicate 2": 13.2, "cell count, replicate 1": 6668, "cell count, replicate 2": 6083}
